Molecular target: tripeptidase of L.lactis subsp. cremoris Wg2 (Lactococcus lactis subsp. cremoris, UniProt P0C2T7)
Assay: Effects of chemical agents on the peptidase activity (leu3 hydrolysis)
Type: biochemical
Conditions: NEM 0.5 mM; cystine 0.05 mM; phenylarsine oxide 0.1 mM; DTT 1 mM; β-mercaptoethanol 0.4 mM; ferricyanide 3 mM after the reducing agents

The chains behind the UniProt entries cited, without tags or fusion partners. Where a name states a change or a piece, a line headed by the entry shows the natural chain unless it says otherwise.
UniProt P0C2T7: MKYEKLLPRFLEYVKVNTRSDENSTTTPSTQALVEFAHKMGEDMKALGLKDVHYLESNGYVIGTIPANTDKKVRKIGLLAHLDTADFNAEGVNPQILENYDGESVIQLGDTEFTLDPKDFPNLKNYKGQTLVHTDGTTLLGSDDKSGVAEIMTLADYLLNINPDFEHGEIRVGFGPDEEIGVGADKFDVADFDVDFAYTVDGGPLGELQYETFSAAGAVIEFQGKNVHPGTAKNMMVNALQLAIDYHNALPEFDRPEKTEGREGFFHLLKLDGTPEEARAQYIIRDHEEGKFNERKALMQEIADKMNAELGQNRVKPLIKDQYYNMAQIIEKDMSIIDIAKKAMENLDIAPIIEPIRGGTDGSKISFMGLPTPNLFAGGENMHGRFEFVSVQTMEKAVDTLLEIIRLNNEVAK

## O=[As]c1ccccc1 (stereo not shown)
  effect on the enzyme activity (in words): had no effect on the enzyme activity

— patent EP0440303A1 (PROBICOM RESEARCH B.V., priority 1990, dated 1991)
